Compound potency records, mixed from different reports. Data source: NIAID ChemDB in PubChem.

Common to all: growth or infection tests

An empty or dashed field is not shown. Conditions beyond the fields shown may differ between rows. ECn: concentration that inhibits the pathogen or its effect by n%. A number after MIC or MFC names an inhibition level or a share of isolates. Inhibition is in % at the dose shown (toxicity tests: loss of growth or viability). a–b is a range or a potency band.

compound,read-out,cells,species,tested at,strain,result
CSc1ncnc2c1ncn2[C@@H]1OC2COP(=O)(O)OC2[C@H]1O,MIC,-,Vaccinia virus,-,-,3.2 µg/mL
N=C(N)c1ncn([C@@H]2O[C@H](CO)[C@@H](O)[C@H]2O)n1,EC50,-,Rift valley fever virus,-,-,1–100 µM
O=c1cc(/C=C/c2ccccc2)c2ccc3occ(-c4ccc(-c5ccccc5)cc4)c3c2o1,EC50,-,Japanese encephalitis virus,-,-,7.8 µg/mL
COC(=O)c1ncn([C@H]2O[C@@H](COCc3ccccc3)[C@H](OCc3ccccc3)[C@@H]2OCc2ccccc2)c1C(=O)OC,EC50,-,Lassa virus,-,-,46 µg/mL
Nc1nc(=O)n([C@@H]2O[C@H](CO)[C@@H](O)[C@@H]2O)cc1F,EC50,C1271,Cowpox virus,-,Brighton,0.11 µM
Nc1nccc2c1ncn2[C@@H]1O[C@H](CO)[C@@H](O)[C@H]1O,inhibition,Chick embryo cells,Newcastle disease virus,100 µM,-,33.6%
C[C@@H](SC1COC(/C=C/C=C/c2ccc(C#N)cc2F)OC1)[C@](O)(Cn1cncn1)c1ccc(F)cc1F,MIC50,-,Histoplasma capsulatum,-,50 strains,≤0.015 µg/mL
CCCCNC(=S)N=Nc1c(O)n(CN2CCOCC2)c2ccc([N+](=O)[O-])cc12,EC50,VERO,Yellow fever virus,-,-,>20 µg/mL
CC(C)O[C@@H]1[C@H](OC(C)C)[C@@H](COS(=O)(=O)NC(=O)O[C@H]2O[C@H](COCc3ccccc3)[C@@H](OCc3ccccc3)[C@H](OCc3ccccc3)[C@H]2OCc2ccccc2)O[C@H]1n1ccc(=O)[nH]c1=O,EC50,VERO,African swine fever virus,-,-,40 µg/mL
CC(=O)N[C@H]1C[C@@H](n2cnc3c(N)ncnc32)[C@H](O)[C@@H]1O,EC50,HFF,Venezuelan equine encephalitis virus,-,-,>100 µg/mL
C=CCNC(=S)N=Nc1c(O)[nH]c2ccc([N+](=O)[O-])cc12,EC50,VERO,Yellow fever virus,-,-,2.18 µg/mL
CC(C)O[C@@H]1[C@H](OC(C)C)[C@@H](COCCCC2O[C@H](COC(=O)c3ccccc3)[C@@H](OC(=O)c3ccccc3)[C@H](OC(=O)c3ccccc3)[C@H]2OC(=O)c2ccccc2)O[C@H]1n1ccc(=O)[nH]c1=O,EC50,VERO,African swine fever virus,-,-,25 µg/mL
O=c1[nH]c(=O)n([C@H]2C[C@H](O)[C@@H](CO)O2)cc1I,EC99,PRK,Vaccinia virus,-,-,0.25 µg/mL
CC(C)O[C@@H]1[C@H](OC(C)C)[C@@H](COS(=O)(=O)NC(=O)O[C@@H]2C[C@@H](OC(=O)c3ccccc3)[C@H](OC(=O)c3ccccc3)[C@@H](COC(=O)c3ccccc3)O2)O[C@H]1n1ccc(=O)[nH]c1=O,EC50,VERO,African swine fever virus,-,-,235 µg/mL
O=P1(O)OCC2O[C@@H](n3cnc4c(NO)ncnc43)[C@H](O)C2O1,MIC,-,Vaccinia virus,-,-,3.2–10 µg/mL
Nc1ccn([C@@H]2C=C(CO)[C@@H](O)[C@H]2O)c(=O)n1,EC50,MK2,Monkeypox virus,-,MPX,0.1 µg/mL
O=c1[nH]c(=O)n([C@H]2C[C@H](O)[C@@H](CO)O2)cc1/C=C/Br,EC99,PRK,Vaccinia virus,-,-,22 µg/mL
Cc1ccc(N2C(=O)C(C)S/C2=N/N=C2\C(=O)Nc3ccc([N+](=O)[O-])cc32)cc1,EC50,VERO,Yellow fever virus,-,-,>20 µg/mL
Cc1cn([C@@H]2O[C@H](CO)[C@@H](O)[C@@H]2F)c(=O)[nH]c1=O,EC50,C1271,Cowpox virus,-,Brighton,0.22 µM
CC(C)NS(=O)(=O)OC[C@H]1O[C@@H](n2ccc(=O)[nH]c2=O)C2OC(C)(C)OC21,EC50,VERO,African swine fever virus,-,-,100 µg/mL
Clc1ccc2c(c1)C=C(c1ccc(Br)cc1)CO2,EC50,HEP-2,Poliovirus,-,IB (TYPE 2),>10 µM
N=c1ncn(Cc2ccco2)c2nc[nH]c12,inhibition,BSC-1,Vaccinia virus,25 µg/mL,-,0%
Nc1ccn(C[C@@H](CO)OCP(=O)(O)O)c(=O)n1,EC50,VERO,Variola virus,-,Isolate Kali-Muthu,11 µg/mL
Nc1ncnc2c1nc(Cl)n2[C@@H]1O[C@H](CO)[C@@H](O)[C@H]1O,EC50,C1271,Cowpox virus,-,Brighton,32 µM
Clc1ccc2c(c1)C=C(c1ccccc1)CO2,inhibition,HEP-2,Poliovirus,10 µM,II (TYPE 2),96%
Nc1nc(=O)n([C@@H]2O[C@H](CO)[C@@H](O)[C@@H]2F)cc1I,EC50,C1271,Cowpox virus,-,Brighton,0.8 µM
O=[N+]([O-])c1ccc2c(c1)c(N=NC(=S)Nc1ccc(Cl)cc1)c(O)n2CN1CCOCC1,EC50,VERO,Yellow fever virus,-,-,>20 µg/mL
CC(=O)OC[C@H]1O[C@@H](OC(=O)NS(=O)(=O)OC[C@H]2O[C@@H](n3ccc(=O)[nH]c3=O)[C@H](OC(C)C)[C@@H]2OC(C)C)[C@@H](OC(C)=O)[C@@H](OC(C)=O)[C@@H]1OC(C)=O,EC50,VERO,African swine fever virus,-,-,>100 µg/mL
CC[C@@H](C(C)C)[C@H](O)[C@@H](O)[C@@H](C)[C@H]1CC[C@H]2[C@@H]3CC(=O)[C@H]4C[C@@H](Br)CC[C@]4(C)[C@H]3CC[C@]12C,EC50,VERO,Junin virus,-,IV4454,4.8 µM
O=C1c2ccccc2C(=O)N1Cc1cc2c(cc1O)Sc1ccccc1N2C(Nc1ccccc1)c1ccc(-c2ccccc2)cc1,EC50,-,Japanese encephalitis virus,-,P20778,7.8 µg/mL
CC(C)OC1[C@H](n2ccc(=O)[nH]c2=O)O[C@H](COS(=O)(=O)NC(=O)NC[C@H]2O[C@H](COCc3ccccc3)[C@@H](OCc3ccccc3)[C@H](OCc3ccccc3)[C@H]2OCc2ccccc2)[C@H]1OC(C)C,EC50,VERO,African swine fever virus,-,-,10 µg/mL
CCNC(=S)N=Nc1c(O)[nH]c2ccc([N+](=O)[O-])cc12,EC50,VERO,Yellow fever virus,-,-,1.96 µg/mL
CC(C)=CCC[C@@H](COS(=O)(=O)O)C1CCC2C3CC[C@H]4C[C@H](OS(=O)(=O)O)[C@@H](O)CC4(C)C3CCC21C,inhibition,VERO,Junin virus,80 µg/mL,IV4454,64%
COC(=O)[C@H]1[C@@H]2C[C@@H](O[C@@H]3O[C@H](C)[C@@H](O)[C@H](N)[C@@H]3O)/C=C/C=C/C=C/C=C/C=C/C=C/C=C/[C@H](C)[C@@H](O)[C@H](C)[C@H](C)OC(=O)C[C@H](O)C[C@H](O)[C@@H](O)CC[C@H](O)C[C@H](O)C[C@](O)(C[C@@H]1O)O2,EC50,HFF,Newcastle disease virus,-,-,100 µg/mL
CCCCn1cnc(=N)c2[nH]cnc21,inhibition,BSC-1,Vaccinia virus,100 µg/mL,-,1%
Clc1ccc(C2COc3ccc(Cl)cc3C2)cc1,EC50,HEP-2,Poliovirus,-,IA (TYPE 2),>10 µM
Nc1nc(=O)n([C@@H]2C=C(CO)[C@@H](O)[C@H]2O)cc1I,EC50,-,Monkeypox virus,-,ZAIRE,3.7 µg/mL
CC(C)CCCC(COS(=O)(=O)O)C1CCC2C3CC=C4C[C@H](O)[C@@H](OS(=O)(=O)O)CC4(C)C3CCC12C,inhibition,VERO,Junin virus,80 µg/mL,IV4454,8.7%
O=C(NS(=O)(=O)OCCOCn1ccc(=O)[nH]c1=O)O[C@H]1O[C@H](COCc2ccccc2)[C@@H](OCc2ccccc2)[C@H](OCc2ccccc2)[C@H]1OCc1ccccc1,EC50,VERO,African swine fever virus,-,-,25 µg/mL
Cc1ccc(Cn2cnc(=N)c3[nH]cnc32)cc1,inhibition,BSC-1,Vaccinia virus,12 µg/mL,-,0%
CC(C)C(=O)Nc1ncc(Cc2ccccc2)s1,MIC50,-,Histoplasma capsulatum,-,-,6.27 µM
CC[C@@H](C(C)C)[C@H](O)[C@@H](O)[C@@H](C)[C@H]1CC[C@H]2[C@@H]3CC(=O)[C@@]4(O)C[C@@H](OC(C)=O)CC[C@]4(C)[C@H]3CC[C@]12C,EC50,VERO,Junin virus,-,IV4454,2 µM
O=C(NS(=O)(=O)OC[C@H]1O[C@@H](n2ccc(=O)[nH]c2=O)[C@H](O)[C@@H]1O)O[C@H]1O[C@H](COC(=O)c2ccccc2)[C@@H](OC(=O)c2ccccc2)[C@H](OC(=O)c2ccccc2)[C@H]1OC(=O)c1ccccc1,EC50,VERO,African swine fever virus,-,-,18 µg/mL
O=c1[nH]c(=O)n([C@@H]2O[C@H](CO)[C@@H](O)[C@@H]2F)cc1I,EC50,C1271,Cowpox virus,-,Brighton,0.16 µM
CC[C@@H](C(C)C)[C@@H](O)[C@H](O)[C@@H](C)[C@H]1CC[C@H]2[C@@H]3CC(=O)[C@H]4C[C@H](O)[C@H](O)C[C@]4(C)[C@H]3CC[C@]12C,EC50,VERO,Junin virus,-,IV4454,11.5 µM
CC12CC[C@H](OS(=O)(=O)O)CC1=CCC1C2CCC2(C)C(C(=O)CO)CCC12,inhibition,VERO,Junin virus,40 µg/mL,IV4454,0%
Brc1ccc(C2=Cc3ccccc3OC2)cc1,inhibition,HEP-2,Poliovirus,10 µM,IA (TYPE 2),10%
C[C@@]1(O)[C@H](O)[C@@H](COP(=O)(O)OP(=O)(O)OP(=O)(O)O)O[C@H]1n1ccc2c(N)ncnc21,EC50,VERO,Venezuelan equine encephalitis virus,-,-,>320 µM
Clc1ccc(C2COc3ccccc3C2)cc1,EC50,HEP-2,Poliovirus,-,TYPE 2,>10 µM
CCC(C)CC(C)CCCCCCCCC(=O)N[C@H]1C[C@@H](O)[C@H](NCCN)NC(=O)[C@@H]2[C@@H](O)CCN2C(=O)[C@H]([C@H](O)CCN)NC(=O)[C@H]([C@H](O)[C@@H](O)c2ccc(O)cc2)NC(=O)[C@@H]2C[C@@H](O)CN2C(=O)[C@H]([C@@H](C)O)NC1=O,Mean MIC,-,Histoplasma capsulatum,-,20 isolates,16.6 µg/mL
N=c1c2ncn([C@@H]3O[C@H](CO)[C@@H](O)[C@H]3O)c2ncn1OCc1cc(F)cc(F)c1,EC50,VERO,Variola virus,-,Isolate Brazil Garcia,0.14 µg/mL
CC[C@@H](C(C)C)[C@H](O)[C@@H](O)[C@@H](C)[C@H]1CC[C@H]2[C@@H]3CC(=O)[C@@]4(O)C[C@H](O)[C@H](O)C[C@]4(C)[C@H]3CC[C@]12C,EC90,VERO,Junin virus,-,IV4454,4.1 µM

The last 7 rows once more:

CC12CC[C@H](OS(=O)(=O)O)CC1=CCC1C2CCC2(C)C(C(=O)CO)CCC12 ; read-out: inhibition ; cells: VERO ; species: Junin virus ; tested at: 40 µg/mL ; strain: IV4454 ; result: 0%
Brc1ccc(C2=Cc3ccccc3OC2)cc1 ; read-out: inhibition ; cells: HEP-2 ; species: Poliovirus ; tested at: 10 µM ; strain: IA (TYPE 2) ; result: 10%
C[C@@]1(O)[C@H](O)[C@@H](COP(=O)(O)OP(=O)(O)OP(=O)(O)O)O[C@H]1n1ccc2c(N)ncnc21 ; read-out: EC50 ; cells: VERO ; species: Venezuelan equine encephalitis virus ; result: >320 µM
Clc1ccc(C2COc3ccccc3C2)cc1 ; read-out: EC50 ; cells: HEP-2 ; species: Poliovirus ; strain: TYPE 2 ; result: >10 µM
CCC(C)CC(C)CCCCCCCCC(=O)N[C@H]1C[C@@H](O)[C@H](NCCN)NC(=O)[C@@H]2[C@@H](O)CCN2C(=O)[C@H]([C@H](O)CCN)NC(=O)[C@H]([C@H](O)[C@@H](O)c2ccc(O)cc2)NC(=O)[C@@H]2C[C@@H](O)CN2C(=O)[C@H]([C@@H](C)O)NC1=O ; read-out: Mean MIC ; species: Histoplasma capsulatum ; strain: 20 isolates ; result: 16.6 µg/mL
N=c1c2ncn([C@@H]3O[C@H](CO)[C@@H](O)[C@H]3O)c2ncn1OCc1cc(F)cc(F)c1 ; read-out: EC50 ; cells: VERO ; species: Variola virus ; strain: Isolate Brazil Garcia ; result: 0.14 µg/mL
CC[C@@H](C(C)C)[C@H](O)[C@@H](O)[C@@H](C)[C@H]1CC[C@H]2[C@@H]3CC(=O)[C@@]4(O)C[C@H](O)[C@H](O)C[C@]4(C)[C@H]3CC[C@]12C ; read-out: EC90 ; cells: VERO ; species: Junin virus ; strain: IV4454 ; result: 4.1 µM